# PSTVd loop 15 mutant pool in Nicotiana benthamiana

From the data files of Wu et al. 2024, doi:10.1371/journal.ppat.1012142.

The pool varies loop 15 of the PSTVd intermediate strain in the pattern GGAAACCGNNNNNNC; wild type is GGAAACCGCUACUAC (upper and lower strand joined, each 5' to 3', the first 7 letters being the upper strand, closing pairs included).

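Three N. benthamiana plants were inoculated with the whole mutant pool. Progeny were sequenced from the inoculated region (day 5), the margin of the inoculated leaf (day 10) and systemic leaves (day 12).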

Values are reads per thousand in the sample; higher means more abundant, 0 means not found. Each site shows the three plants. "Pool" is the share in the plasmid pool used as inoculum, on the same scale. The inoculated region was read from the minus strand, the other sites from the plus strand. Samples held 43,870 to 66,106 reads, so the smallest values rest on one or two reads. For reference, wild type rose from 33.9 per thousand in the pool to 202, 200, 159 (inoculated region), 724, 746, 710 (leaf margin) and 856, 883, 880 (systemic leaves). The authors trace changes outside the varied positions to PCR and sequencing errors or to mutation in the plant; presence does not show that a variant is infectious alone.

| sequence | pool | inoculated region | leaf margin | systemic leaves |
|---|---|---|---|---|
| GGAAACCGAACACGC | 0.176 | 0.147 0.209 0.114 | 0 0 0.0200 | 0 0 0 |
| GGAAACCGAAGACCC | 0.208 | 0.115 0.112 0.0190 | 0 0 0 | 0 0 0 |
| GGAAACCGAAGCGGC | 0.192 | 0.491 0.289 0.248 | 0.0323 0 0.0200 | 0.0322 0 0 |
| GGAAACCGAAGGAAC | 0.208 | 0.0983 0.0643 0.0762 | 0.0162 0 0.0200 | 0 0 0 |
| GGAAACCGAAUCAGC | 0.192 | 0.0983 0.129 0.0952 | 0 0 0.0401 | 0 0 0 |
| GGAAACCGACAACUC | 0.224 | 0.344 0.177 0.324 | 0.162 0.0891 0.120 | 0.0483 0 0 |
| GGAAACCGACACAGC | 0.240 | 0.0655 0.112 0.0952 | 0 0.0445 0 | 0 0 0 |
| GGAAACCGACAUCGC | 0.160 | 0.115 0.129 0.0381 | 0.0323 0 0 | 0 0 0 |
| GGAAACCGACCAAUC | 0.288 | 0.0983 0.112 0.0762 | 0 0 0.0200 | 0 0 0 |
| GGAAACCGACGAACC | 0.288 | 0.115 0.0482 0.0571 | 0.0162 0 0.0200 | 0 0 0 |
| GGAAACCGACGGUUC | 0.288 | 0.262 0.193 0.286 | 0.113 0.0223 0.140 | 0.0483 0.0454 0.0456 |
| GGAAACCGACUGAUC | 0.192 | 0.131 0.0643 0.152 | 0 0 0.0401 | 0 0 0 |
| GGAAACCGACUGGGC | 0.256 | 0.147 0.0964 0.0381 | 0 0 0 | 0 0 0 |
| GGAAACCGAGACACC | 0.320 | 0.115 0.129 0.133 | 0.0162 0 0.0601 | 0 0 0 |
| GGAAACCGAGGAACC | 0.240 | 0.0328 0.145 0.114 | 0 0 0 | 0 0 0 |
| GGAAACCGAGGAAUC | 0.240 | 0.0655 0.0803 0.114 | 0.0323 0 0.0401 | 0 0 0 |
| GGAAACCGAGGACUC | 0.336 | 0.0819 0.129 0.0381 | 0.0162 0 0.0200 | 0 0 0 |
| GGAAACCGAGGCUAC | 0.240 | 0.0983 0 0.0762 | 0 0 0 | 0 0 0 |
| GGAAACCGAGUGUUC | 0.224 | 0.229 0.257 0.324 | 0.0970 0.0668 0.180 | 0.0483 0 0 |
| GGAAACCGAUCAAGC | 0.336 | 0.0655 0.0321 0.114 | 0 0 0 | 0 0 0.0228 |
| GGAAACCGAUGCCAC | 0.288 | 0.0983 0.0643 0.0762 | 0 0 0.0601 | 0 0 0 |
| GGAAACCGAUGUGGC | 0.272 | 0.0819 0.0643 0.0762 | 0 0.0223 0.0200 | 0 0 0 |
| GGAAACCGAUUAAGC | 0.272 | 0.229 0.225 0.190 | 0.0162 0 0.0401 | 0.0322 0 0 |
| GGAAACCGCAGCUCC | 0.128 | 0.115 0.0643 0.0952 | 0 0 0.0801 | 0 0 0 |
| GGAAACCGCAUAUUC | 0.144 | 0.164 0.129 0.152 | 0.0162 0.0223 0.0200 | 0.0322 0 0 |
| GGAAACCGCCACAGC | 0.272 | 0.0491 0.129 0.0952 | 0 0 0 | 0 0 0 |
| GGAAACCGCCCAUUC | 0.224 | 0.459 0.337 0.267 | 0.0970 0.0445 0.140 | 0.0161 0.0605 0.0684 |
| GGAAACCGCCGAUGC | 0.272 | 0.360 0.386 0.343 | 0.113 0.0223 0.100 | 0.0805 0 0 |
| GGAAACCGCCUAGGC | 0.256 | 0.0819 0.0803 0.133 | 0.0162 0 0 | 0 0 0 |
| GGAAACCGCCUCAGC | 0.288 | 0.131 0.161 0.133 | 0.0162 0 0.0200 | 0.0322 0.0151 0 |
| GGAAACCGCGAAGGC | 0.240 | 0.0655 0.0964 0.0381 | 0 0 0.0401 | 0 0 0 |
| GGAAACCGCGACCAC | 0.336 | 0.180 0.337 0.362 | 0.113 0.0445 0.180 | 0.0483 0.106 0.0456 |
| GGAAACCGCGACUCC | 0.240 | 0.426 0.225 0.381 | 0.162 0.111 0.0801 | 0.113 0.0303 0 |
| GGAAACCGCGAUCCC | 0.304 | 0.0819 0.0803 0.152 | 0 0 0.0401 | 0 0 0 |
| GGAAACCGCGCGCUC | 0.224 | 0.0983 0.112 0.0762 | 0 0 0.0200 | 0 0 0 |
| GGAAACCGCGUGUGC | 0.112 | 0.377 0.353 0.400 | 0.162 0.0668 0.200 | 0.129 0 0 |
| GGAAACCGCUCAAUC | 0.240 | 0.115 0.161 0.0571 | 0 0 0 | 0 0 0 |
| GGAAACCGCUCCACC | 0.304 | 0.0655 0.0321 0.114 | 0 0 0.0200 | 0 0 0 |
| GGAAACCGCUGAGAC | 0.256 | 0.0819 0.0482 0.0762 | 0 0.0223 0.0401 | 0 0 0 |
| GGAAACCGCUGGAUC | 0.256 | 0.115 0.161 0.171 | 0.0162 0 0.0200 | 0 0 0 |
| GGAAACCGCUGGCAC | 0.336 | 0.0819 0.129 0.0381 | 0 0 0.0401 | 0 0 0 |
| GGAAACCGCUGGGGC | 0.256 | 0.147 0.0643 0.0571 | 0.0162 0.0223 0.0200 | 0 0 0 |
| GGAAACCGCUGUUAC | 0.272 | 0.377 0.241 0.267 | 0.146 0.0668 0.180 | 0.0483 0 0 |
| GGAAACCGCUUACAC | 0.240 | 0.0983 0.0964 0.152 | 0 0 0.0401 | 0 0 0.0228 |
| GGAAACCGGAACAUC | 0.272 | 0.0491 0.0643 0.171 | 0 0 0 | 0 0 0 |
| GGAAACCGGAACUGC | 0.224 | 0.0328 0.112 0.0190 | 0 0 0.0401 | 0 0 0 |
| GGAAACCGGAAGAGC | 0.304 | 0.0819 0.177 0.114 | 0 0 0.0200 | 0.0161 0 0 |
| GGAAACCGGACGCCC | 0.336 | 0.0819 0.0803 0.0381 | 0 0.0223 0 | 0 0 0 |
| GGAAACCGGAGACUC | 0.288 | 0.0655 0.112 0.114 | 0.0162 0 0 | 0 0 0 |
| GGAAACCGGAUCCCC | 0.240 | 0.0655 0.0643 0.152 | 0 0 0 | 0 0 0 |
| GGAAACCGGCAAUUC | 0.240 | 0.311 0.289 0.324 | 0.0647 0.0891 0.301 | 0.0483 0 0 |
| GGAAACCGGCGCAAC | 0.240 | 0.0983 0.177 0.0571 | 0 0 0 | 0 0 0.0228 |
| GGAAACCGGCUGCCC | 0.352 | 0.0655 0.0321 0.133 | 0.0162 0 0 | 0.0161 0 0 |
| GGAAACCGGGACCAC | 0.240 | 0.0819 0.0803 0.0762 | 0.0162 0 0.0200 | 0 0 0 |
| GGAAACCGGGCACAC | 0.240 | 0.131 0.0643 0.0381 | 0 0.0223 0 | 0 0 0 |
| GGAAACCGGGCGUGC | 0.240 | 0.115 0.0803 0.0762 | 0.0162 0.0223 0 | 0 0 0 |
| GGAAACCGGGGACAC | 0.224 | 0.0164 0.0803 0.209 | 0.0162 0 0.0200 | 0 0 0 |
| GGAAACCGGUCGCAC | 0.240 | 0.0983 0.0803 0.114 | 0 0 0 | 0 0 0 |
| GGAAACCGGUCUUAC | 0.256 | 0.262 0.337 0.381 | 0.162 0.111 0.100 | 0.0161 0.0454 0.0912 |
| GGAAACCGGUGAGUC | 0.240 | 0.0819 0.0803 0.114 | 0 0 0.0200 | 0 0 0 |
| GGAAACCGGUGUUAC | 0.192 | 0.0491 0.129 0.0381 | 0 0 0.0200 | 0 0 0 |
| GGAAACCGUACCAUC | 0.240 | 0.131 0.0964 0.171 | 0.0162 0 0 | 0 0 0 |
| GGAAACCGUAUAUGC | 0.256 | 0.0164 0.112 0.133 | 0.0162 0 0 | 0 0 0 |
| GGAAACCGUAUGGCC | 0.192 | 0.147 0.112 0.0571 | 0 0.0223 0 | 0 0 0 |
| GGAAACCGUCCUCAC | 0.192 | 0.0328 0.0803 0.114 | 0 0 0.0401 | 0 0 0 |
| GGAAACCGUCCUUUC | 0.192 | 0.475 0.498 0.324 | 0.0647 0.0223 0.0401 | 0.0644 0 0 |
| GGAAACCGUCGUUGC | 0.240 | 0.115 0.0482 0.190 | 0.0485 0 0.0200 | 0.0161 0 0 |
| GGAAACCGUGAAGCC | 0.192 | 0.0983 0.0321 0.190 | 0.0162 0.0223 0 | 0 0 0 |
| GGAAACCGUGGAGCC | 0.192 | 0.0328 0.0643 0.0952 | 0.0162 0 0.0200 | 0 0 0 |
| GGAAACCGUGGUCGC | 0.320 | 0.311 0.386 0.152 | 0 0 0 | 0 0 0 |
| GGAAACCGUUACUAC | 0.848 | 25.6 25.9 25.5 | 17.9 16.3 13.3 | 8.82 7.28 6.20 |
| GGAAACCGUUGUACC | 0.144 | 0.0819 0.0803 0.152 | 0 0 0.0200 | 0 0 0 |
| GGAAACCGUUUGUCC | 0.160 | 0.295 0.289 0.400 | 0.0808 0.0891 0.200 | 0.0483 0 0 |